Where a chain is given by its changes, count along the chain named. Numbers in names are those of the source.
Target: His6-SUMO-NOT7 (human, UniProt Q9UIV1 1-285)
Assay: ITC

B1: His6-tagged PieF^K124A (natural protein)
chain: MKRLIICNGNKLTVCTQAISSGGIVEKYTPIFSLTKESDNELTLELSGVARGYYIIPSELTSSQARAAHLITLLTRAEESQTTDMHKILNSFVSGKITSGSMFNFENDGSFKREPEEAYNLINAI
  fold weaker binding than wild-type PieF: ~23 fold

B2: His6-tagged PieF^K124R (natural protein)
chain: B1 chain with A124R
  fold decreased affinity against wild-type PieF: ~4 fold

B3: His6-tagged PieF 2M (natural protein)
chain: B1 chain with E117R, L121E, A124K
  fold weaker binding than wild-type PieF: ~18 fold

— PMC12255788, “Intracellular pathogen effector reprograms host gene expression by inhibiting mRNA decay” (Nature Communications, 2025)
